PubChem BioAssay AID504761 – Drosophila RNAi Screening Center, 2011
Assay: 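Genome-wide fly cell screen for genes dengue virus requires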 (primary screen). Cell system: D.Mel-2 cells from Drosophila. Reagent: long dsRNA against Drosophila genes. Conditions: infection with dengue virus type 2; dose and infection time not stated. Read-out: 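Cells stained for dengue envelope protein and imaged; percent of infected cells per well on duplicate plates, ranked by infection, with stained nuclei counted for cell number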. Direction: infection score: higher = more virus-infected cells; cell count: higher = more cells in the well. Call rule: 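Low infection ranks in the two replicates (chance level up to 0.065) followed by a retest with a 1.5-fold or larger significant decrease, p below 0.05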. Calls: active = confirmed: knock-down lowers infection; inactive = not picked or not confirmed.
The deposit covers about 22,000 reagents; this is a random part of those with a known target gene and a result. Over the whole deposit, 116 (0.52%) were called active. 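Calls depend on retest data that are not deposited; infection was ranked per plate without normalising between plates; the unit of the infection score is not given.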 The raw values are shown without normalisation. Not given: the amount of reagent, the time to read-out.

fid (fire dancer) [DRSC14885] — infection score, replicate 1: 2.7; infection score, replicate 2: 2.42; cell count, replicate 1: 6325; cell count, replicate 2: 6572; outcome: inactive
fid (fire dancer) [DRSC16464] — infection score, replicate 1: 5.63; infection score, replicate 2: 1.21; cell count, replicate 1: 5772; cell count, replicate 2: 6702; outcome: inactive
fid (fire dancer) [DRSC23529] — infection score, replicate 1: 1.65; infection score, replicate 2: 1.71; cell count, replicate 1: 6360; cell count, replicate 2: 5902; outcome: inactive
fid (fire dancer) [DRSC25230] — infection score, replicate 1: 2.85; infection score, replicate 2: 11.2; cell count, replicate 1: 6853; cell count, replicate 2: 6904; outcome: inactive
sti (sticky) [DRSC09739] — infection score, replicate 1: 2.84; infection score, replicate 2: 0.53; cell count, replicate 1: 2534; cell count, replicate 2: 2836; outcome: inactive
sti (sticky) [DRSC09740] — infection score, replicate 1: 2.13; infection score, replicate 2: 4.31; cell count, replicate 1: 2344; cell count, replicate 2: 2482; outcome: inactive
Ir56b (Ionotropic receptor 56b) [DRSC06543] — infection score, replicate 1: 1.41; infection score, replicate 2: 2.99; cell count, replicate 1: 6616; cell count, replicate 2: 6452; outcome: inactive
Ir56b (Ionotropic receptor 56b) [DRSC28758] — infection score, replicate 2: 5.03; cell count, replicate 1: 348; cell count, replicate 2: 676; outcome: inactive
Msr-110 [DRSC11227] — infection score, replicate 1: 5.83; infection score, replicate 2: 15.2; cell count, replicate 1: 6058; cell count, replicate 2: 4744; outcome: inactive
Msr-110 [DRSC25246] — infection score, replicate 1: 2.74; infection score, replicate 2: 2.17; cell count, replicate 1: 6350; cell count, replicate 2: 6359; outcome: inactive
CG10561 [DRSC02068] — infection score, replicate 1: 31.9; infection score, replicate 2: 20.6; cell count, replicate 1: 6337; cell count, replicate 2: 6659; outcome: inactive
Stip1 (Stress induced phosphoprotein 1) [DRSC00756] — infection score, replicate 1: 7.01; infection score, replicate 2: 5.44; cell count, replicate 1: 5292; cell count, replicate 2: 5481; outcome: inactive
CG5225 [DRSC24962] — infection score, replicate 1: 7.39; infection score, replicate 2: 2.01; cell count, replicate 1: 6566; cell count, replicate 2: 6060; outcome: inactive
eIF4G2 (eukaryotic translation initiation factor 4G2) [DRSC14207] — infection score, replicate 1: 2.18; infection score, replicate 2: 4.29; cell count, replicate 1: 5832; cell count, replicate 2: 6038; outcome: inactive
eIF4G2 (eukaryotic translation initiation factor 4G2) [DRSC21739] — infection score, replicate 1: 21.6; infection score, replicate 2: 10.8; cell count, replicate 1: 6171; cell count, replicate 2: 6561; outcome: inactive

2 entries from above, ordered by “infection score, replicate 2”, highest first.
eIF4G2 (eukaryotic translation initiation factor 4G2) [DRSC14207] — infection score, replicate 1: 2.18; infection score, replicate 2: 4.29; cell count, replicate 1: 5832; cell count, replicate 2: 6038; outcome: inactive
CG5225 [DRSC24962] — infection score, replicate 1: 7.39; infection score, replicate 2: 2.01; cell count, replicate 1: 6566; cell count, replicate 2: 6060; outcome: inactive
